Compound potency records, mixed from different reports. Data source: NIAID ChemDB in PubChem.

All rows: tests in culture; species: Candida albicans

A number after MIC or MFC names an inhibition level or a share of isolates. Two numbers with a dash give a range or band. Neighbouring rows are from separate reports. ECn is the concentration giving n% inhibition of infection, replication or growth. Blank or dashed fields: not listed here.

SMILES,read by,read-out,strain or isolate,value
CN(C/C=C/C#CC(C)(C)C)Cc1cccc2ccccc12,broth dilution / visual reading,MIC,RCPF Y-401/NCTC 885-653,6.25 µg/mL
COc1cc(C[C@@]2(O)CO[C@H](c3ccc(O)c(OC)c3)[C@H]2CO[C@@H]2O[C@@H](CO)[C@@H](O)[C@H](O)[C@H]2O)ccc1O,MTT,MIC,ATCC 90028,6 µg/mL
Cc1ccc(C(C)C)cc1,broth dilution,MIC,,22600 µg/mL
Cc1ccc(N2NOC(=O)C2S(=O)(=O)Nc2nc(-c3ccc([N+](=O)[O-])cc3)cs2)cc1,broth dilution,MIC,MTCC 227,1000 µg/mL
CCCCn1sc2c(F)cccc2c1=O,,MIC,ATCC 2091,20 µg/mL
Clc1ccc(COC(Cn2ccnc2)c2ccc(Cl)cc2Cl)c(Cl)c1,,MIC,,8 µg/mL
Clc1cc2nc(C3CCNCC3)n(Cc3ccc(CNCCCn4ccnc4)cc3)c2cc1Cl,,MIC,ATCC 10231,>100 µM
c1ccc(NP2(Nc3ccccc3)=NP34=NP5(=N2)NCCCN5CCCCN3CCCN4)cc1,broth dilution,MIC,ATCC 102031,2–1024 µg/mL
CC(=O)N1CCN(c2ccc(OC[C@H]3CO[C@](Cn4ccnc4)(c4ccc(Cl)cc4Cl)O3)cc2)CC1,broth dilution,MIC90,9 clinical isolates,0.25 µg/mL
Clc1ccccc1C(c1ccccc1)(c1ccccc1)n1ccnc1,,MIC,ATCC 2091,1.25 µg/mL
CCC(C)n1ncn(-c2ccc(N3CCN(c4ccc(OC[C@H]5CO[C@](Cn6cncn6)(c6ccc(Cl)cc6Cl)O5)cc4)CC3)cc2)c1=O,,MIC,A28970,1 µg/mL
Clc1ccc(COC(Cn2ccnc2)c2ccc(Cl)cc2Cl)c(Cl)c1,,MIC,,≥0.2 µg/mL
C[C@H](CCC(=O)NCCNCCNC(=O)CC[C@@H](C)[C@H]1CCC2C3C(C[C@H](C)[C@@]21O)[C@@]1(C)CC[C@@H](O)CC1C[C@H]3O)[C@H]1CCC2C3C(C[C@H](C)[C@@]21O)[C@@]1(C)CC[C@@H](O)CC1C[C@H]3O,,MIC,Isolate 4,0.011 µM
C[C@@H]1CC[C@@]2(OC1)O[C@H]1C[C@H]3[C@@H]4CC=C5C[C@@H](O)[C@H](O)[C@@H](O[C@@H]6OC[C@@H](O)[C@H](O)[C@H]6O[C@@H]6O[C@@H](C)[C@H](O)[C@@H](O)[C@H]6O)[C@]5(C)[C@H]4CC[C@]3(C)[C@@]1(O)[C@@H]2C,,MFC,,20 µg/mL
CC1(C)C(O)NP2(=NP34=NP5(=N2)NCCCN5CCCCN3CCCN4)NC1O,broth dilution,MIC,ATCC 102031,2–1024 µg/mL
Cc1ccc(N2NOC(=O)C2S(=O)(=O)Nc2nc(-c3ccc(F)cc3F)cs2)cc1,broth dilution,MIC,MTCC 227,250 µg/mL
C[C@@H]1[C@H](O)[C@@H](C)/C=C/C=C/CC/C=C/C=C/C=C/C=C/C(O[C@H]2O[C@H](C)[C@@H](O)[C@H](N)[C@@H]2O)CC2O[C@](O)(CC(O)C(O)CCC(O)CC(O)CC(O)CC(=O)O[C@H]1C)CC(O)C2C(=O)O,,MIC,ATCC 10231,8 µg/mL
Cc1ccc(N2NOC(=O)C2S(=O)(=O)Nc2nc(-c3ccc(Cl)cc3)cs2)cc1,broth dilution,MIC,MTCC 227,125 µg/mL
CCN1C(C#N)=C(C#N)N=C(c2ccccc2)C1/C=C/c1ccccc1,broth dilution / visual reading,MIC,RCPF Y-401/NCTC 885-653,>100 µg/mL
COc1cccc(C=O)c1,agar diffusion / agar,MIC90,10261,500–900 µg/mL
Cc1c(-c2ccccc2)c(=O)oc2ccc(-c3cc(-c4ccc(Cl)cc4)c4oc5ccccc5c4n3)cc12,broth dilution / turbidity,MIC,MTCC 227,1000 µg/mL
Cc1ccc(N2NOC(=O)C2S(=O)(=O)Nc2ccc(-n3c(-c4ccc([N+](=O)[O-])cc4)nc4ccccc4c3=O)cc2)cc1,broth dilution,MIC,MTCC 227,250 µg/mL
Cc1c(-c2ccccc2)c(=O)oc2ccc(-c3cc(-c4ccccc4)c4c(n3)-c3ccccc3C4)cc12,broth dilution / turbidity,MIC,MTCC 227,500 µg/mL
C[C@@H]1C[C@@H]([C@H](O)CC2CC(=O)NC(=O)C2)C(=O)[C@@H](C)C1,,MIC,,12.5 µg/mL
COc1cc2c(cc1[C@@H](C)O)C=CC(C)(C)O2,,MIC,ATCC 10231,100 µg/mL
C[C@H]1OO[C@@H](CC(=O)OCC2[C@H]3C[C@@H]4C[C@H](C3)C(Br)[C@H]2C4)[C@@H]2O[C@@H]21,,EC50,,>1000 µM
Clc1cc2nc(C3CCNCC3)n(Cc3ccncc3)c2cc1Cl,,MIC,ATCC 10231,>100 µM
O=c1[nH]sc2cc(C(F)(F)F)ccc12,,MIC,ATCC 2091,7.5 µg/mL
CCCCOC(=O)C1(O)CC(OC(C)=O)C(OC(=O)/C=C/c2ccc(OC(C)=O)c(OC)c2)C(OC(C)=O)C1,,MIC,ATCC 10231,>1000 µg/mL
CCC[CH2][Sn]([CH2]CCC)([NH]C(Cc1c[nH]c2ccccc12)C(=O)O)[O]C(=O)C(N)Cc1c[nH]c2ccccc12,,MIC,,12.5 µg/mL
C1C2CC3CC1CC(C2)C3C[C@H]1OOC[C@@H]2O[C@@H]21,,EC50,,125–250 µM
Cc1ccc(C(F)(F)C(F)(F)c2ccc(C(C)(C)N)cc2)cc1,,MIC100,MY1055,8 µg/mL
OC1NP2(=NP34=NP5(=N2)NCCCN5CCCCN3CCCN4)NC(O)C(F)(F)C1(F)F,broth dilution,MIC,ATCC 102031,2–1024 µg/mL
COc1cc2ccc(=O)oc2c(O)c1O,,MIC,ATCC 14053,500 µg/mL
C=CCc1ccc(OC)c(OC)c1,broth dilution,MIC,,1700 µg/mL
COc1ccc(-c2cc(-c3ccc4oc(=O)c(-c5ccccc5)c(C)c4c3)nc3c2CCc2ccccc2-3)cc1,broth dilution / turbidity,MIC,MTCC 227,250 µg/mL
CCN1C(C#N)=C(C#N)N=C(c2cccs2)C1/C=C/c1ccccc1,broth dilution / visual reading,MIC,RCPF Y-401/NCTC 885-653,>100 µg/mL
COC(=O)c1cc(O)c(O)c(O)c1,broth dilution,MIC,ATCC 10231,100 µg/mL
COc1cccc(CN=C=S)c1,broth dilution,MFC,,150 µg/mL
C/C=C(/C)C(=O)O[C@@H]1c2cc(C(C)=O)ccc2O[C@@H]1C(C)(C)O,,MIC,ATCC 10231,>400 µg/mL
C[C@@H]1[C@H](O)[C@@H](C)/C=C/C=C/CC/C=C/C=C/C=C/C=C/C(O[C@H]2O[C@H](C)[C@@H](O)[C@H](N)[C@@H]2O)CC2O[C@](O)(CC(O)C(O)CCC(O)CC(O)CC(O)CC(=O)O[C@H]1C)CC(O)C2C(=O)O,broth dilution,MFC99.9,ATCC 10231,6.25 µg/mL
Clc1cc2nc(C3CCNCC3)[nH]c2cc1Cl,,MIC,ATCC 10231,>100 µM
Cc1c(-c2ccccc2)c(=O)oc2ccc(-c3cc(-c4ccc(F)cc4)c4c(n3)-c3ccccc3C4)cc12,broth dilution / turbidity,MIC,MTCC 227,1000 µg/mL
Oc1ccccc1,broth dilution,MIC,,>45260 µg/mL
O=[N+]([O-])c1ccc(Cn2c(C3CCNCC3)nc3cc(Cl)c(Cl)cc32)cc1,,MIC,ATCC 10231,>100 µM
Cc1ccc(N2NOC(=O)C2S(=O)(=O)Nc2ccc(-n3c(-c4ccc(Cl)cc4)nc4ccccc4c3=O)cc2)cc1,broth dilution,MIC,MTCC 227,250 µg/mL
CCN1CC(c2ccsc2)=NC(C#N)=C1C#N,broth dilution / visual reading,MIC,RCPF Y-401/NCTC 885-653,>100 µg/mL
CC1(C)C=Cc2cc3ccc(=O)oc3cc2O1,,MIC,ATCC 14053,500 µg/mL
C[C@@H](c1ncncc1F)[C@](O)(Cn1cncn1)c1ccc(F)cc1F,broth dilution,MIC50,9 clinical isolates,≤0.031 µg/mL
COc1ccc(CSC#N)cc1,broth dilution,MFC,,5000 µg/mL
CCC[CH2][Sn](=[O])[CH2]CCC,,MIC,,1 µg/mL
CCN1C(C#N)=C(C#N)N=C(c2ccsc2)C1/C=C/c1ccccc1,broth dilution / visual reading,MIC,RCPF Y-401/NCTC 885-653,>100 µg/mL
CCCCn1sc2ccc(F)cc2c1=O,,MIC,ATCC 2091,2.5 µg/mL
Cc1ccc(N2NOC(=O)C2S(=O)(=O)Nc2nc(-c3c(Cl)cccc3Cl)cs2)cc1,broth dilution,MIC,MTCC 227,1000 µg/mL
COc1c(OC(C)=O)ccc2c1C(=O)N1CCc3cc4c(cc3C1C2)OCO4,,MIC,ATCC 10231,>1000 µg/mL
C[C@H]1C=C[C@@H](CC23CC4CC(CC(C4)C2)C3)OO1,,EC50,,125–250 µM
CC1(C)C=C2C3CCC4[C@@]5(C)CCC(O)C(C)(C)C5CC[C@@]4(C)[C@]3(C)CC[C@@]2(C(=O)O)CC1,broth dilution,MLC,ATCC 10231,>200 µg/mL
C[C@@H]1CC[C@@]2(OC1)O[C@H]1C[C@H]3[C@@H]4CC=C5C[C@@H](O)[C@H](O)[C@@H](O[C@@H]6OC[C@@H](O)[C@H](O)[C@H]6O[C@@H]6O[C@@H](C)[C@H](O)[C@@H](O)[C@H]6O)[C@]5(C)[C@H]4CC[C@]3(C)[C@H]1[C@@H]2C,,MFC,,≥20 µg/mL
O=C(O)C(Cc1cnc[nH]1)[NH][Sn]([c]1ccccc1)([c]1ccccc1)[c]1ccccc1,,MIC,,<12.5 µg/mL
Cc1ccc(N2NOC(=O)C2S(=O)(=O)Nc2ccc(-n3c(-c4ccccc4)nc4ccccc4c3=O)cc2)cc1,broth dilution,MIC,MTCC 227,1000 µg/mL
C1CCC(C[C@@]23COOC[C@@H]2O3)CC1,,EC50,,125–250 µM
C[C@@H]1CC[C@@]2(OC1)O[C@H]1C[C@H]3[C@@H]4CC=C5C[C@@H](O)[C@H](O)[C@@H](O[C@@H]6OC[C@@H](O)[C@H](O)[C@H]6O)[C@]5(C)[C@H]4CC[C@]3(C)[C@@]1(O)[C@@H]2C,,MIC,,≥20 µg/mL
S=C=NCc1ccccc1,broth dilution,MFC,,600 µg/mL
OC1CCC(O)P12=NP1(=NP(Cl)(Cl)=N2)NCCCN1CCCCN1CCCNP12=NP(Cl)(Cl)=NP1(=N2)C(O)CCC1O,broth dilution,MIC,ATCC 102031,2–1024 µg/mL
CCCCCCCCCCCCCC(=O)O[C@@H]1[C@@H](C)[C@@]2(O)[C@@H](C=C(CO)C[C@]3(O)C(=O)C(C)=C[C@@H]23)[C@@H]2C(C)(C)[C@]12OC(C)=O,,MIC,ATCC 44859,32 µg/mL
CC(C)(O)C1Cc2cc3ccc(=O)oc3cc2O1,,MIC,ATCC 14053,500 µg/mL
C=C1CC[C@@]2(OC1)O[C@H]1C[C@H]3[C@@H]4CC=C5C[C@@H](O)[C@H](O)[C@@H](O[C@@H]6O[C@H](CO)[C@H](O)[C@H](O)[C@H]6O)[C@]5(C)[C@H]4CC[C@]3(C)[C@H]1[C@@H]2C,,MIC,,≥20 µg/mL
COC1=C(C)C(=O)c2cc(=O)n(C)cc2C1=O,,MIC,7N,50 µg/mL
C[C@H]1C=C(C2C3CC4CC(C3)CC2C4)COO1,,EC50,,63–125 µM
C/C=C/Cc1ccc(OC)cc1,broth dilution,MIC,,4740 µg/mL
C[C@@H]1C=C2C3CCC4[C@@]5(C)CC[C@@H](O)C(C)(C)C5CC[C@@]4(C)[C@]3(C)CC[C@@]2(C(=O)O)CC1,broth dilution,MLC,ATCC 10231,>200 µg/mL
CC(C)=CCc1c(O)ccc2ccc(=O)oc12,,MIC,ATCC 14053,250 µg/mL
C=CCc1ccc(O)c(-c2cc(CC=C)ccc2O)c1,,MIC,KCTC 1940,25 µg/mL
CC(C)=CCc1cc2cc(CC=C(C)C)c(=O)oc2cc1O,,MIC,ATCC 14053,500 µg/mL
Cc1c(OCC(F)(F)F)ccnc1CS(=O)c1nc2ccccc2[nH]1,,MIC,Clinical isolates,128 µg/mL
C=C(Cl)CN1C[C@H](OCC23C[C@@H]4[C@H](C)CC[C@H]4C4(C=O)CC2C=C(C(C)C)C34C(=O)O)O[C@H](C)C1,,MIC95,22 isolates,0.06 µg/mL
CCCCOC(=O)[C@]1(OC(C)=O)CC(OC(C)=O)[C@@H](OC(C)=O)C(OC(=O)/C=C/c2ccc(OC(C)=O)c(OC)c2)C1,,MIC,ATCC 10231,>1000 µg/mL
COc1cc(Cc2cnc(N)nc2N)cc(OC)c1OCCCNc1ccc(S(=O)(=O)c2ccc(N)cc2)cc1,,MIC,YEM 12 (WT),>64 µg/mL

Repeating the first 6 entries:

| SMILES | read by | read-out | strain or isolate | value |
|---|---|---|---|---|
| CN(C/C=C/C#CC(C)(C)C)Cc1cccc2ccccc12 | broth dilution / visual reading | MIC | RCPF Y-401/NCTC 885-653 | 6.25 µg/mL |
| COc1cc(C[C@@]2(O)CO[C@H](c3ccc(O)c(OC)c3)[C@H]2CO[C@@H]2O[C@@H](CO)[C@@H](O)[C@H](O)[C@H]2O)ccc1O | MTT | MIC | ATCC 90028 | 6 µg/mL |
| Cc1ccc(C(C)C)cc1 | broth dilution | MIC |  | 22600 µg/mL |
| Cc1ccc(N2NOC(=O)C2S(=O)(=O)Nc2nc(-c3ccc([N+](=O)[O-])cc3)cs2)cc1 | broth dilution | MIC | MTCC 227 | 1000 µg/mL |
| CCCCn1sc2c(F)cccc2c1=O |  | MIC | ATCC 2091 | 20 µg/mL |
| Clc1ccc(COC(Cn2ccnc2)c2ccc(Cl)cc2Cl)c(Cl)c1 |  | MIC |  | 8 µg/mL |